Test results reported in patent US7652025B2 (priority 2001, dated 2010).

Tested on: Lipopolysaccharide (LPS)-induced lethal sepsis
Settings: ICR mice; LPS 20 mg/kg i.p.; compound 15 mg/kg s.c. two hours after LPS; control group 33.3%

CN(C(=O)Cc1ccc(Cl)c(Cl)c1)[C@H]1CCCC[C@@H]1N1CCCC1 (racemic)
survival rate at 24 hours after administration of LPS: 60%
